Anti-infective test results gathered from many reports (values: NIAID ChemDB through PubChem).

Common to all: enzyme or target tests; agent: Herpes simplex virus 2; target: Thymidine kinase; read-out: IC50

Lines come from different laboratories, so protocols vary. ICn: concentration for n% inhibition. An empty or dashed field is not shown.

SMILES	strain	value
CCc1cn([C@H]2C[C@H](O)[C@@H](CNC(=O)c3ccccc3)O2)c(=O)[nH]c1=O	-	3.2 µM
C=Cc1cn([C@@H]2O[C@H](CO)[C@@H](O)[C@@H]2F)c(=O)nc1N	G	>200 µM
CCc1cn([C@H]2C[C@H](O)[C@@H](CNC(=O)[C@@H](C)Oc3ccc(Cl)cc3Cl)O2)c(=O)[nH]c1=O	-	0.004 µM
Cc1ccc(S(=O)(=O)NC[C@H]2O[C@@H](n3cc(C)c(=O)[nH]c3=O)C[C@@H]2O)cc1	-	88 µM
C#C[C@H]1O[C@@H](n2cc(C)c(=O)[nH]c2=O)C[C@@H]1O	333	100 µM
O=c1[nH]c(=O)n([C@@H]2C[C@@H](O)[C@H](CO)O2)cc1C(F)(F)F	-	14.5 µM
O=c1[nH]c(=O)n([C@@H]2O[C@H](CO)[C@@H](O)[C@@H]2F)cc1/C=C/Cl	G	>200 µM
CCCCCCCCOP(=O)(O)OC[C@H]1O[C@@H](n2cc(CC)c(=O)[nH]c2=O)C[C@@H]1O	-	1.5 µM
CC(=O)NC[C@H]1O[C@@H](n2cc(C)c(=O)[nH]c2=O)C[C@@H]1O	-	~200 µM
O=c1[nH]c(=O)n([C@@H]2O[C@H](CO)[C@@H](O)[C@@H]2F)cc1/C=C/I	G	>200 µM
CCc1cn([C@H]2C[C@H](O)[C@@H](CNC(=O)CCc3ccccc3)O2)c(=O)[nH]c1=O	-	0.8 µM
CCC(=O)NC[C@H]1O[C@@H](n2cc(I)c(=O)[nH]c2=O)C[C@@H]1O	-	21 µM
CCOC(=O)/C=C/c1cn([C@@H]2O[C@H](CO)[C@@H](O)[C@@H]2F)c(=O)nc1N	G	>200 µM
CCc1cn([C@H]2C[C@H](O)[C@@H](CNC(=O)Cc3ccccc3)O2)c(=O)[nH]c1=O	-	0.3 µM
CC(C)C(=O)NC[C@H]1O[C@@H](n2cc(I)c(=O)[nH]c2=O)C[C@@H]1O	-	7 µM
Nc1nc(=O)n([C@@H]2O[C@H](CO)[C@@H](O)[C@@H]2F)cc1/C=C/I	G	>200 µM
CS(=O)(=O)NC[C@H]1O[C@@H](n2cc(I)c(=O)[nH]c2=O)C[C@@H]1O	-	35 µM
CCc1cn([C@H]2C[C@H](O)[C@@H](CO)O2)c(=O)[nH]c1=O	-	0.51 µM

The last 2 rows once more:

CS(=O)(=O)NC[C@H]1O[C@@H](n2cc(I)c(=O)[nH]c2=O)C[C@@H]1O ; value: 35 µM
CCc1cn([C@H]2C[C@H](O)[C@@H](CO)O2)c(=O)[nH]c1=O ; value: 0.51 µM